Compound potency records, mixed from different reports. Data source: NIAID ChemDB in PubChem.

Common to all: growth or infection tests; organism: Streptococcus pneumoniae

Rows are shuffled and stem from different studies.

O=C(Nc1ccc(C(F)(F)F)cc1)Nc1ccc(C(F)(F)F)cc1 ; measure: MIC ; strain: STP6301 ; value: 38 µM
CC(=O)NC[C@H]1CN(c2ccc(-c3nsc(C#N)n3)c(F)c2)C(=O)O1 ; measure: MIC ; strain: UC9912 ; value: 1 µg/mL
CC[C@H]1OC(=O)[C@@](C)(F)C(=O)[C@H](C)[C@@H](O[C@@H]2O[C@H](C)C[C@H](N(C)C)[C@H]2O)[C@@]2(C)C[C@@H](C)C(=NC(C)=O)[C@H](C)[C@@H](OC/C(=N\OCc3cccc(C(N)=O)c3)CO2)[C@]1(C)O ; measure: MIC ; strain: 7701 (erythromycin A-resistant) ; value: 0.5 µg/mL
COc1c(N2CCNC(C)C2)c(F)cc2c(=O)c(C(=O)O)cn(C3CC3)c12 ; measure: MIC ; strain: R6 ; value: 0.25 µg/mL
COCC1=C(C(=O)O)N2C(=O)C(NC(=O)/C(=N/OC)c3csc(N)n3)C2SC1 ; measure: MIC90 ; strain: 595 strains ; value: 0.125 µg/mL
CC(=O)NC[C@H]1CN(c2ccc(-c3ccsc3)c(F)c2)C(=O)O1 ; measure: MIC ; strain: UC9912 ; value: ≤0.125 µg/mL
O=C(Nc1cccc(C2=NCCN2)c1)Nc1cccc(C2=NCCN2)c1 ; measure: MIC ; strain: STP6301 ; value: 60 µM
COc1c(N2C[C@@H]3CCCN[C@@H]3C2)c(F)cc2c(=O)c(C(=O)O)cn(C3CC3)c12 ; measure: MIC90 ; strain: 430 isolates (penicillin-intermediately susceptible) ; value: 0.28 µg/mL
C=CC(=O)NC[C@H]1CN(c2ccc(C3CCS(=O)(=O)CC3)c(F)c2)C(=O)O1 ; measure: MIC ; strain: UC9912 ; value: 0.25 µg/mL
CC[C@H]1OC(=O)[C@@](C)(F)C(=O)[C@H](C)[C@@H](O[C@@H]2O[C@H](C)C[C@H](N(C)C)[C@H]2O)[C@@]2(C)C[C@@H](C)C(=NC(C)=O)[C@H](C)[C@@H](OC/C(=N\OCc3ccc4cnn(C(N)=O)c4c3)CO2)[C@]1(C)O ; measure: MIC ; strain: 7701 (erythromycin A-resistant) ; value: 0.13 µg/mL
CC[C@H]1OC(=O)[C@H](C)C(=O)[C@H](C)[C@@H](O[C@@H]2O[C@H](C)C[C@H](N(C)C)[C@H]2O)[C@@]2(C)C[C@@H](C)C(=NC(C)=O)[C@H](C)[C@@H](OC/C(=N\OCc3cccc(N)n3)CO2)[C@]1(C)O ; measure: MIC ; strain: 49619 (erythromycin-susceptible) ; value: <0.06 µg/mL
CC[C@H]1OC(=O)[C@H](C)C(=O)[C@H](C)[C@@H](O[C@@H]2O[C@H](C)C[C@H](N(C)C)[C@H]2O)[C@@]2(C)C[C@@H](C)C(=NC(C)=O)[C@H](C)C(OC/C(=C\C=C\c3ccccc3)CO2)[C@]1(C)O ; measure: MIC ; strain: 7701 (erythromycin-resistant-MEF) ; value: 0.25 µg/mL
CC(=O)NC[C@H]1CN(c2ccc(-c3cccs3)c(F)c2)C(=O)O1 ; measure: MIC ; strain: UC9912 ; value: ≤0.125 µg/mL
CC[C@H]1OC(=O)[C@H](C)[C@@H](O[C@H]2C[C@@](C)(OC)[C@@H](O)[C@H](C)O2)[C@H](C)[C@@H](O[C@@H]2O[C@H](C)C[C@H](N(C)C)[C@H]2O)[C@](C)(O)C[C@@H](C)/C(=N\OCOCCOC)[C@H](C)[C@@H](O)[C@]1(C)O ; measure: MIC90 ; strain: 595 strains ; value: ≥64 µg/mL
CC(=O)NC[C@H]1CN(c2ccc3c(c2)OCc2nccn2-3)C(=O)O1 ; measure: MIC ; strain: 1707/4 ; value: 0.125 µg/mL
O=C(O)NC[C@H]1CC(c2ccc(-n3ccnc3)c(F)c2)=NO1 ; measure: MIC ; strain: UC9912 ; value: 1 µg/mL
CC[C@H]1OC(=O)[C@H](C)C(=O)[C@H](C)[C@@H](O[C@@H]2O[C@H](C)C[C@H](N(C)C)[C@H]2O)[C@@]2(C)C[C@@H](C)C(=NC(C)=O)[C@H](C)[C@@H](OC/C(=N\Oc3ccc(-c4cnccn4)s3)CO2)[C@]1(C)O ; measure: MIC ; strain: 7701 (erythromycin-resistant-MEF) ; value: <0.06 µg/mL
CC[C@H]1OC(=O)[C@@](C)(F)C(=O)[C@H](C)[C@@H](O[C@@H]2O[C@H](C)C[C@H](N(C)C)[C@H]2O)[C@@]2(C)C[C@@H](C)C(=NC(C)=O)[C@H](C)[C@@H](OC/C(=N\OCc3ccc4nc(N)sc4c3)CO2)[C@]1(C)O ; measure: MIC ; strain: 49619 (erythromycin A-susceptible) ; value: <0.06 µg/mL
CC[C@H]1OC(=O)[C@H](C)C(=O)[C@H](C)[C@@H](O[C@@H]2O[C@H](C)C[C@H](N(C)C)[C@H]2O)[C@@]2(C)C[C@@H](C)C(=NC(C)=O)[C@H](C)C(OC/C(=N/OCc3ccccc3)CO2)[C@]1(C)O ; measure: MIC ; strain: 700906 (erythromycin-resistant-ERM) ; value: 32 µg/mL
CC[C@H]1OC(=O)[C@H](C)C(=O)[C@H](C)[C@@H](O[C@@H]2O[C@H](C)C[C@H](N(C)C)[C@H]2O)[C@@]2(C)C[C@@H](C)C(=NC(C)=O)[C@H](C)C(OC/C(=C\C=C\c3cccc([N+](=O)[O-])c3)CO2)[C@]1(C)O ; measure: MIC ; strain: 49619 (erythromycin-susceptible) ; value: <0.06 µg/mL
CC[C@H]1OC(=O)[C@H](C)C(=O)[C@H](C)[C@@H](O[C@@H]2O[C@H](C)C[C@H](N(C)C)[C@H]2O)[C@](C)(OC)C[C@@H](C)C(=O)[C@H](C)[C@H]2N(CCCCn3cnc(-c4cccnc4)c3)C(=O)O[C@]12C ; measure: MIC ; strain: 700906 (erythromycin-resistant-ERM) ; value: 0.25 µg/mL
O=C(CC(=O)Nc1cccc(C(F)(F)F)c1)Nc1cccc(C(F)(F)F)c1 ; measure: MIC ; strain: STP51 (penicillin-resistant) ; value: >300 µM
CC[C@H]1OC(=O)[C@H](C)C(=O)[C@H](C)[C@@H](O[C@@H]2O[C@H](C)C[C@H](N(C)C)[C@H]2O)[C@@]2(C)C[C@@H](C)C(=NC(C)=O)[C@H](C)[C@@H](OC/C(=N\Oc3ccc(-n4cccn4)nc3)CO2)[C@]1(C)O ; measure: MIC ; strain: 700906 (erythromycin-resistant-ERM) ; value: <0.06 µg/mL
O=C(NNC(=O)Nc1cc(C(F)(F)F)cc(C(F)(F)F)c1)Nc1cc(C(F)(F)F)cc(C(F)(F)F)c1 ; measure: MIC ; strain: STP51 ; value: 1.7 µM
C[C@@H]1CN(c2c(F)c(N)c3c(=O)c(C(=O)O)cn(C4CC4)c3c2F)C[C@H](C)N1 ; measure: MIC ; strain: J24 (quinolone- penicillin-sensitive) ; value: 0.1 µg/mL
COc1c(N2CCNC(C)C2)c(F)cc2c(=O)c(C(=O)O)cn(C3CC3)c12 ; measure: MIC90 ; strain: 15 strains ; value: 0.39 µg/mL
COC(=O)N1CC=C(c2ccc(C3=NO[C@@H](CNC(=O)O)C3)cc2)CC1 ; measure: MIC ; strain: UC9912 ; value: 0.5 µg/mL
O=C(CC(=O)Nc1cc(C(F)(F)F)cc(C(F)(F)F)c1)Nc1cccc(C2=NCCN2)c1 ; measure: MIC ; strain: STP51 (penicillin-resistant) ; value: 27 µM
CC[C@H]1OC(=O)[C@H](C)C(=O)[C@H](C)[C@@H](O[C@@H]2O[C@H](C)C[C@H](N(C)C)[C@H]2O)[C@@](C)(OCCCc2cnc3ccccc3c2)C[C@@H](C)C(=O)[C@H](C)[C@H]2NC(=O)O[C@@]21C ; measure: MIC ; strain: ATCC 6303 ; value: 0.03 µg/mL
NC1CCN(c2c(F)cc3c(=O)c(C(=O)O)cn(C4CC4)c3c2Cl)C1 ; measure: MIC ; strain: R6-G8 ; value: 0.12 µg/mL
CC[C@H]1OC(=O)[C@@](C)(F)C(=O)[C@H](C)[C@@H](O[C@@H]2O[C@H](C)C[C@H](N(C)C)[C@H]2O)[C@@]2(C)C[C@@H](C)C(=NC(C)=O)[C@H](C)[C@@H](OC/C(=N\OCc3ccc(C(N)=O)cc3)CO2)[C@]1(C)O ; measure: MIC ; strain: 700906 (erythromycin A-resistant) ; value: 0.25 µg/mL
CC1(C)S[C@@H]2[C@H](NC(=O)[C@H](N)c3ccc(O)cc3)C(=O)N2[C@H]1C(=O)O ; measure: MIC90 ; strain: 595 strains ; value: ≤0.06 µg/mL
CC[C@H]1OC(=O)[C@@](C)(F)C(=O)[C@H](C)[C@@H](O[C@@H]2O[C@H](C)C[C@H](N(C)C)[C@H]2O)[C@@]2(C)C[C@@H](C)C(=NC(C)=O)[C@H](C)[C@@H](OC/C(=N\OCc3ccc(-c4ncccn4)s3)CO2)[C@]1(C)O ; measure: MIC ; strain: 700906 (erythromycin A-resistant) ; value: <0.06 µg/mL
CO/N=C1\CN(c2nc3c(cc2F)c(=O)c(C(=O)O)cn3C2CC2)CC1CN ; measure: MIC50 ; strain: 28 strains (ciprofloxacin-resistant) ; value: 0.25 µg/mL
CN1CCN(c2ccc3c(=O)c(C(=O)O)cn(C4CC4)c3c2)CC1 ; measure: MIC ; strain: D-1687 ; value: 128 µg/mL
CC[C@H]1OC(=O)[C@H](C)C(=O)[C@H](C)[C@@H](O[C@@H]2O[C@H](C)C[C@H](N(C)C)[C@H]2O)[C@@]2(C)C[C@@H](C)C(=NC(C)=O)[C@H](C)[C@@H](OC/C(=N/OCc3ccc(-c4cccc(N)n4)s3)CO2)[C@]1(C)O ; measure: MIC ; strain: 7701 (erythromycin A-resistant) ; value: 0.25 µg/mL
O=C(O)c1cn(C2CC2)c2cc(N3CCNCC3)ccc2c1=O ; measure: MIC ; strain: R6-G8 ; value: 32 µg/mL
CC1(C)S[C@@H]2[C@H](NC(=O)Cc3ccccc3)C(=O)N2[C@H]1C(=O)O ; measure: MIC ; strain: J24 (quinolone- penicillin-sensitive) ; value: 0.025 µg/mL
C[C@H]1NCc2cc(-c3ccc4c(=O)c(C(=O)O)cn(C5CC5)c4c3OC(F)F)ccc21 ; measure: MIC ; strain: R6 ; value: 0.03 µg/mL
COC(=O)N1CC=C(c2ccc(C3=NO[C@H](CNC(=O)O)C3)cc2)CC1 ; measure: MIC ; strain: UC9912 ; value: >16 µg/mL
O=C(CCC(=O)Nc1cc(C(F)(F)F)cc(C(F)(F)F)c1)Nc1cc(C(F)(F)F)cc(C(F)(F)F)c1 ; measure: MIC ; strain: STP51 (penicillin-resistant) ; value: >300 µM
CC[C@H]1OC(=O)[C@@](C)(F)C(=O)[C@H](C)[C@@H](O[C@@H]2O[C@H](C)C[C@H](N(C)C)[C@H]2O)[C@@]2(C)C[C@@H](C)C(=N)[C@H](C)[C@@H](OC/C(=N\OCc3ccc(-c4nccs4)nc3)CO2)[C@]1(C)O ; measure: MIC ; strain: 49619 (erythromycin A-susceptible) ; value: <0.06 µg/mL
CC(=O)NC[C@H]1CN(c2ccc(-c3cnc(C(C)=O)s3)c(F)c2)C(=O)O1 ; measure: MIC ; strain: UC9912 ; value: ≤0.125 µg/mL
CO/N=C1\CN(c2nc3c(cc2F)c(=O)c(C(=O)O)cn3C2CC2)CC1CN ; measure: MIC50 ; strain: 37 isolates (minocycline-resistant) ; value: 0.031 µg/mL
C=C1COC2[C@@H](C)C(=NC(C)=O)[C@H](C)C[C@@](C)(OC1)[C@H](O[C@@H]1O[C@H](C)C[C@H](N(C)C)[C@H]1O)[C@@H](C)C(=O)[C@@H](C)C(=O)O[C@H](CC)[C@@]2(C)O ; measure: MIC ; strain: 700906 (erythromycin-resistant-ERM) ; value: >64 µg/mL
CC[C@H]1OC(=O)[C@@](C)(F)C(=O)[C@H](C)[C@@H](O[C@@H]2O[C@H](C)C[C@H](N(C)C)[C@H]2O)[C@@]2(C)C[C@@H](C)C(=NC(C)=O)[C@H](C)[C@@H](OC/C(=N\OCc3ccc(-c4nccs4)nc3)CO2)[C@]1(C)O ; measure: MIC ; strain: 7701 (erythromycin A-resistant) ; value: <0.06 µg/mL
O=C(O)NC[C@H]1CC(c2ccc(N3CCOCC3)c(F)c2)=NO1 ; measure: MIC ; strain: UC9912 ; value: 1 µg/mL
CC[C@H]1OC(=O)[C@H](C)C(=O)[C@H](C)[C@@H](O[C@@H]2O[C@H](C)C[C@H](N(C)C)[C@H]2O)[C@@]2(C)C[C@@H](C)C(=O)[C@H](C)C(OC/C=C/CO2)[C@]1(C)O ; measure: MIC ; strain: 700906 (erythromycin-resistant-ERM) ; value: 64 µg/mL
CC(=O)NC[C@H]1CN(c2ccc(-c3ccn[nH]3)c(F)c2)C(=O)O1 ; measure: MIC ; strain: UC9912 ; value: ≤0.5 µg/mL
CC[C@H]1OC(=O)[C@H](C)C(=O)[C@H](C)[C@@H](O[C@@H]2O[C@H](C)C[C@H](N(C)C)[C@H]2O)[C@@]2(C)C[C@@H](C)C(=NC(C)=O)[C@H](C)C(OC/C(=C\c3cnc4ccccc4c3)CO2)[C@]1(C)O ; measure: MIC ; strain: 49619 (erythromycin-susceptible) ; value: 0.125 µg/mL
CC(=O)NC[C@H]1CN(c2ccc(C3CCS(=O)(=O)CC3)c(F)c2)C(=O)O1 ; measure: MIC ; strain: UC9912 ; value: 0.25 µg/mL

Repeating the final 3 entries:

| smiles | measure | strain | value |
|---|---|---|---|
| CC(=O)NC[C@H]1CN(c2ccc(-c3ccn[nH]3)c(F)c2)C(=O)O1 | MIC | UC9912 | ≤0.5 µg/mL |
| CC[C@H]1OC(=O)[C@H](C)C(=O)[C@H](C)[C@@H](O[C@@H]2O[C@H](C)C[C@H](N(C)C)[C@H]2O)[C@@]2(C)C[C@@H](C)C(=NC(C)=O)[C@H](C)C(OC/C(=C\c3cnc4ccccc4c3)CO2)[C@]1(C)O | MIC | 49619 (erythromycin-susceptible) | 0.125 µg/mL |
| CC(=O)NC[C@H]1CN(c2ccc(C3CCS(=O)(=O)CC3)c(F)c2)C(=O)O1 | MIC | UC9912 | 0.25 µg/mL |

MIC50, MIC90 and the like: level of inhibition, or share of isolates inhibited.